Measurements reported in the supplement of paper PMC9931576.
Human monoclonal antibodies against the spike receptor-binding domain (heavy:light variable regions). IC50 against pseudoviruses bearing the spike of naturally observed variants; lower = stronger; >10 µg/ml means not reached at the top dose. No active / inactive call. The stated detection limit is 0.0005 µg/ml; values near or below 0.001 µg/ml lie at the floor of the assay.

Columns and labels:
Experiment in all cases: pseudovirus neutralization IC50; higher = weaker neutralization
[1] = target: SARS-CoV-2 Omicron BA.1 spike pseudovirus
Protocol: (§1)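 Single-round VSV luciferase pseudovirus mixed with antibody dilutions for 1 h and put on Huh-7 cells for about a day; IC50 from the dose curve.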

[2] = target: SARS-CoV-2 Omicron BA.2 spike pseudovirus
Protocol: as §1

[3] = target: SARS-CoV-2 Omicron BA.2.75 spike pseudovirus
Protocol: as §1

[4] = target: SARS-CoV-2 Omicron BA.5 spike pseudovirus
Protocol: as §1

[5] = target: SARS-CoV-2 Omicron BQ.1.1 spike pseudovirus
Protocol: as §1

[6] = target: SARS-CoV-2 Omicron XBB spike pseudovirus
Protocol: as §1

[7] = target: SARS-CoV-2 early D614G spike pseudovirus
Protocol: as §1

Binder | pseudovirus neutralization IC50 [1] [µg/mL] | pseudovirus neutralization IC50 [2] [µg/mL] | pseudovirus neutralization IC50 [3] [µg/mL] | pseudovirus neutralization IC50 [4] [µg/mL] | pseudovirus neutralization IC50 [5] [µg/mL] | pseudovirus neutralization IC50 [6] [µg/mL] | pseudovirus neutralization IC50 [7] [µg/mL]
BD55-6608 (protein) chain 1: EVQLVESGGGLVQPGGSLRLSCEASGFSFSKYAMHWVRQAPGKGLEYVSGISTNGGGTYNEIPMKGRVTISRDNSKNTLYLQMDSLVPEDTAVYYCARDVGSTWYADAFDVWGQGTMVTVSS chain 2: DIQMTQSPSSLSASVGDRVTITCRASQSIRNYLNWYQQKPGKAPKLLIYAASSLQSGVPSRFSGSGSGTDFTLTISRLQPDDFATYYCQQSYVSPTLTFGGGTKVEI | > 10 | > 10 | > 10 | > 10 | > 10 | > 10 | > 10
BD55-1274 (protein) chain 1: EVQLVESGGGLVQPGGSLRLSCAASGFAFGRYWMHWVRQAPGKGLVWVSRINNDGSSTSFADSVKGRFTMSRDNAKNTLYLQMNSLRADDTAVYYCARAPPGSGPLPFDYWGQGTLVTVSS chain 2: SYVLTQPPSVSVAPGKTARITCGTSNIGSDTVHWYQQKSGQAPVLVMSYANDRPSGIPERFSGSNSGSTATLTISRVEAGDEADYYCQVWASSGDPLYVFGTGTKVAVL | > 10 | > 10 | > 10 | > 10 | > 10 | > 10 | 0.25
BD55-6613 (protein) chain 1: EVQLVQSGAEVKKPGESLRISCKGSGYTFTTYWISWVRQMPGRGLEWLGRIDPSDSDADYSPSFQGHVTFSSDKSISTAYLQWSRLKASDTAVYYCARHFYNYGSGSYVFEFWGQGTQVTVSS chain 2: DIQMTQSPSSLSASAGDRVTITCQASQDIRKFLNWYQQKPGKAPSLLIYDASNLAPGVPSRFSGSGSGTDFTFTISSLQPEDVATYYCQHYDNLPLTFGGGTRVDIK | > 10 | > 10 | > 10 | > 10 | > 10 | > 10 | > 10
BD55-6618 (protein) chain 1: QVQLVQSGAEVKKPGSSVKVSCKASGGTLSTHGFNWVRQAPGQGLEWMGRIIPLLGVPQYAQNFQGRVTITADKSTRTTYMELSSLTSEDTAVYYCARDSLNSCSAGTCDRFYWGQGTLVTVSS chain 2: DIVMTQSPDSLAVSLGERATINCKSSQTILYNSNNKNYLAWYQQKPGQPPKLLIYWASARESGVPDRFSGSGSGTDFTLTISSLQAEDVAVYYCQQYYSTPLTFGGGTKVEIK | > 10 | > 10 | > 10 | > 10 | > 10 | > 10 | > 10
BD55-6626 (protein) chain 1: EVQLVESGGGLVQPGGSLRLSCAASGFTFSTYTMHWVRQAPGKGLEYVSAISSDGYTTYSAKSVKGRFTISRDNSKNTLFLEMGSLRAEDTAVYYCARDLPYDAWRGTGMDVWGPGTTVTVSS chain 2: QSVLTQPPSVSGAPGQRVTISCSGSRSDIGAGYDVHWYQQLPGTAPKLLIYGSRHRPSGVPDRFSGSKSGTSASLAITGLQAEDEADYYCQSYDSSLSGHVVFGEGTKLTVL | > 10 | > 10 | > 10 | > 10 | > 10 | > 10 | 0.0986
BD55-6627 (protein) chain 1: QVKLLQSGSELKKPGASVKVSCKASGYTFTAYAVNWVRQAPGQGLEWMGWIDTNTGIPTYAQGFTGRFVLSLDTSVSTAYVLISSLKAEDTAVYYCARADRNYFGYEAFDIWGQGTMVTVSS chain 2: DIQMTQSPSSLSASVGDRVTITCRASQSISNYLNWYQQKPGKAPNLLISAASSLQSGVPSRFSGSGSETDFTLTIYSLQPEDFATYYCQQSYSSHLLTFGGGTKVE | 2.09 | 1.68 | 1.66 | 1.33 | > 10 | > 10 | 0.281
